Reference: publication PMC6375636, “Monotherapy with a low-dose lipopeptide HIV fusion inhibitor maintains long-term viral suppression in rhesus macaques” (PLoS Pathogens, 2019)
Where two headings read alike, the source gives them in different places. Peptide text beside a SMILES is read from it. * marks the point of attachment. Stearoyl = CCCCCCCCCCCCCCCCCC(=O)*

Tests used:
[1] = Cytotoxicity, CellTiter 96 AQueous One Solution cell proliferation assay; type: cell-based; settings: 37°C for 2 days, absorbance 490 nm, read-out: 50% cytotoxic concentration (CC50)
Experimental: The cytotoxicity of LP-80 on TZM-bl, MT-4, HEK293T, and human PBMC was measured using a CellTiter 96 AQueous One Solution cell proliferation assay (Promega). In brief, 50-μl volumes of LP-80 at graded concentrations were added to cells, which were seeded on a 96-well tissue culture plate (1 × 10^4 cells per well). After incubation at 37°C for 2 days, 20 μl of CellTiter 96 AQueous One solution reagent was pipetted into each well and further incubated at 37°C for 2 h. The absorbance was measured at 490 nm using a SpectraMax M5 microplate reader.

[2] = tested on: HIV-1NL4-3; assay: In vitro selection of resistant HIV-1 mutants in MT-4 cells; type: cell-based; settings: passage on MT-4 cells with 2-fold increases in inhibitor concentration
Experimental: Cells were incubated at 37°C with 5% CO2 until an extensive cytopathic effect was observed. Culture supernatants were harvested and used for next passage on fresh MT-4 cells with a 2-fold increase in inhibitor concentrations.

[3] = tested on: NL4-3V38M pseudovirus; type: cell-based, HIV-1; settings: IC50 on NL4-3V38M relative to NL4-3D36G
Experimental: (§1) The inhibitory activities of inhibitors against HIV-1 pseudoviruses and replication-competent isolates were measured as described previously. Briefly, HIV-1 pseudoviruses were generated via the cotransfection of HEK293T cells with an Env-expressing plasmid and a backbone plasmid that encodes Env-defective, luciferase-expressing HIV-1 genome (pSG3Δenv). Viral stocks of replication-competent HIV-1 isolates were generated by transfecting viral molecular clones into HEK293T cells. […] Inhibitors were prepared in 3-fold dilutions, mixed with 100 TCID50 of a virus, and then incubated for 1 h at room temperature. […] Luciferase activity was measured as described above.

[4] = tested on: NL4-3V38A pseudovirus; type: cell-based, HIV-1; settings: IC50 on NL4-3V38A relative to NL4-3D36G
Experimental: as §1

[5] = tested on: NL4-3WT pseudovirus; type: cell-based, HIV-1; settings: IC50 on NL4-3WT relative to NL4-3D36G
Experimental: as §1

[6] = tested on: NL4-3G36S/V38M pseudovirus; type: cell-based, HIV-1; settings: IC50 on NL4-3G36S/V38M relative to NL4-3D36G
Experimental: as §1

[7] = tested on: NL4-3I37T pseudovirus; type: cell-based, HIV-1; settings: IC50 on NL4-3I37T relative to NL4-3D36G
Experimental: as §1

[8] = tested on: NL4-3V38A/N42T pseudovirus; type: cell-based, HIV-1; settings: for Fold change: IC50 on NL4-3V38A/N42T relative to NL4-3D36G
Experimental: as §1

[9] = tested on: NL4-3N43K pseudovirus; type: cell-based, HIV-1; settings: IC50 on NL4-3N43K relative to NL4-3D36G
Experimental: as §1

[10] = tested on: NL4-3I37T/N43K pseudovirus; type: cell-based, HIV-1; settings: IC50 on NL4-3I37T/N43K relative to NL4-3D36G
Experimental: as §1

[11] = tested on: NL4-3Q40H pseudovirus; type: cell-based, HIV-1; settings: IC50 on NL4-3Q40H relative to NL4-3D36G
Experimental: as §1

[12] = tested on: HIV-1NL4-3(D36G) pseudovirus; type: cell-based; settings: IC50 on NL4-3D36G relative to NL4-3D36G (reference)
Experimental: as §1

[13] = human PBMC, 1 × 10^4 cells per well
[14] = human, MT-4 cells, MT-4, 1 × 10^4 cells per well
[15] = human, HEK293T, 1 × 10^4 cells per well
[16] = human, TZM-bl, 1 × 10^4 cells per well

| Compound | CC50 at 48 h [1, 13] | CC50 at 48 h [1, 14] | CC50 at 48 h [1, 15] | CC50 at 48 h [1, 16] | Outcome of in vitro selection of resistant mutants [2] | Fold change [3] | Fold change [4] | Fold change [5] | Fold change [6] | Fold change [7] | Fold change [8] | IC50 ([8]; NL4-3V38A/N42T, T-20 resistant, mean ± SD of 3 assays in triplicate) | Fold change [9] | Fold change [10] | Fold change [11] | Fold change [12] | A/G (after 1st treatment (DPI 263), before (DPI 191) 2.03 ± 0.48) | LDH (after 1st treatment (DPI 263), before (DPI 191) 290 ± 62.25) | A/G (after 2nd treatment (DPI 508), before (DPI 325) 2.31 ± 0.23) | GLU (after 2nd treatment (DPI 508), before (DPI 325) 3.69 ± 0.62) |
| --- | --- | --- | --- | --- | --- | --- | --- | --- | --- | --- | --- | --- | --- | --- | --- | --- | --- | --- | --- | --- |
| CCCCCCCCCCCCCCCC(=O)NCCCC[C@H](NC(=O)[C@H](CCC(=O)O)NC(=O)[C@H](CC(C)C)NC(=O)[C@H](CCCCN)NC(=O)[C@H](CCCCN)NC(=O)[C@H](CC(C)C)NC(=O)[C@H](CCC(=O)O)NC(=O)[C@H](CCC(=O)O)NC(=O)[C@H](CCC(=O)O)NC(=O)[C@H](CC(N)=O)NC(=O)[C@H](CCCCN)NC(=O)[C@H](CCCCN)NC(=O)[C@H](CCC(N)=O)NC(=O)[C@H](CCC(N)=O)NC(=O)[C@H](CCC(=O)O)NC(=O)[C@H](CCC(=O)O)NC(=O)[C@H](C)NC(=O)[C@H](CCCCN)NC(=O)[C@H](CCCCN)NC(=O)[C@H](CC(C)C)NC(=O)[C@H](CC(C)C)NC(=O)[C@H](CCC(=O)O)NC(=O)[C@H](CCC(=O)O)NC(=O)[C@@H](NC(=O)[C@H](CCCCN)NC(=O)[C@H](CCC(N)=O)NC(=O)[C@H](CCC(=O)O)NC(=O)[C@H](Cc1c[nH]c2ccccc12)NC(C)=O)[C@@H](C)CC)C(N)=O [LP-52, reference compound] | 78.5 µM | 108 µM | 80.5 µM | 85.8 µM | – | – | – | – | – | – | – | – | – | – | – | – | – | – | – | – |
| CCCCCCCCCCCCCCCCCC(=O)NCCCC[C@H](NC(=O)[C@H](CCC(=O)O)NC(=O)[C@H](CC(C)C)NC(=O)[C@H](CCCCN)NC(=O)[C@H](CCCCN)NC(=O)[C@H](CC(C)C)NC(=O)[C@H](CCC(=O)O)NC(=O)[C@H](CCC(=O)O)NC(=O)[C@H](CCC(=O)O)NC(=O)[C@H](CC(N)=O)NC(=O)[C@H](CCCCN)NC(=O)[C@H](CCCCN)NC(=O)[C@H](CCC(N)=O)NC(=O)[C@H](CCC(N)=O)NC(=O)[C@H](CCC(=O)O)NC(=O)[C@H](CCC(=O)O)NC(=O)[C@H](C)NC(=O)[C@H](CCCCN)NC(=O)[C@H](CCCCN)NC(=O)[C@H](CC(C)C)NC(=O)[C@H](CC(C)C)NC(=O)[C@H](CCC(=O)O)NC(=O)[C@H](CCC(=O)O)NC(=O)[C@@H](NC(=O)[C@H](CCCCN)NC(=O)[C@H](CCC(N)=O)NC(=O)[C@H](CCC(=O)O)NC(=O)[C@H](Cc1c[nH]c2ccccc12)NC(C)=O)[C@@H](C)CC)C(N)=O [LP-80] (Ac-WEQKIEELLKKAEEQQKKNEEELKKLEK(Stearoyl)-NH2) | 37.4 µM | 218 µM | 72.2 µM | 62.3 µM | difficult to passage the virus in the presence of LP-80 inhibitor | 65 | 115 | 1 | 35 | 25 | 625 | 0.00125 ± 1e-05 µM | 125 | 1895 | 65 | 1 | 1.50 ± 0.2 | 443.4 ± 85.91 U/L | 2 ± 0.4 | 3.74 ± 0.85 mmol/L |
| CCCCCCCCCCCCCCCCCC(=O)NCCCC[C@H](NC(=O)[C@H](CCC(=O)O)NC(=O)[C@H](CC(C)C)NC(=O)[C@H](CCCCN)NC(=O)[C@H](CCCCN)NC(=O)[C@H](CC(C)C)NC(=O)[C@H](CCC(=O)O)NC(=O)[C@H](CCC(=O)O)NC(=O)[C@H](CCC(=O)O)NC(=O)[C@H](CC(N)=O)NC(=O)[C@H](CCCCN)NC(=O)[C@H](CCCCN)NC(=O)[C@H](CCC(N)=O)NC(=O)[C@H](CCC(N)=O)NC(=O)[C@H](CCC(=O)O)NC(=O)[C@H](CCC(=O)O)NC(=O)[C@H](C)NC(=O)[C@H](CCCCN)NC(=O)[C@H](CCCCN)NC(=O)[C@H](CC(C)C)NC(=O)[C@H](CC(C)C)NC(=O)[C@H](CCC(=O)O)NC(=O)[C@H](CCC(=O)O)NC(=O)[C@@H](NC(C)=O)[C@@H](C)CC)C(N)=O [LP-90] | – | – | – | – | – | 1440 | 2750 | 10 | 790 | 170 | 16396.67 | – | 1683.33 | 15443.33 | 1390 | 1 | – | – | – | – |
